Where two headings read alike, the source gives them in different places.
Tests used:
[1] = target: P99 β-lactamase (class C) (Enterobacter cloacae, UniProt P05364)
[2] = system: Staphylococcus aureus [MGH:MA #50848]; experiment: Antibiotic MIC in presence and absence of β-lactamase inhibitor (synergy); format: cell-based
Description: (§1) An increasing number of organisms produce enzymes that inhibit the actions of β-lactam antibiotics, so-called β-lactamases. The “strength” of β-lactam antibiotics can be improved by pairing them with compounds that inhibit bacterial enzyme β-lactamases. The Minimum Inhibitory Concentration (MIC) test determines the lowest concentration of an antibiotic at which no visible bacterial growth occurs. This test permits comparisons to be made between bacterial growth in the presence of antibiotic alone (control) and bacterial growth in the presence of both an antibiotic and a novel (test) compound.
(§2) • β-lactamase positive strains • β-lactam antibiotics • β-lactamase inhibitor compounds • appropriate bacterial growth medium β-Lactamase Positive Strains • Klebsiella oxytoca [ATCC#51983] • Staphylococcus aureus [MGH: MA#50848] • Enterococcus faecalis [ATCC#49757] • Enterobacter cloacae [ATCC#23355] • Haemophilus influenzae [ATCC#43163] β-Lactam antibiotics
(§3) Frozen bacterial stocks were thawed to room temperature, and a few drops were placed on an appropriate plate; chocolate agar was used for H. influenzae, blood agar was used for all others. The plates were incubated overnight at 37° C. in air, except for H. influenzae, which was incubated in a CO2 incubator. The cultures were subcultured the following day, and the subcultures were again incubated overnight
(§4) A sterile loop was touched to 3 colonies and used to inoculate 1 mL of Mueller-Hinton Broth (MHB). The bacterial solution was diluted 18.8-fold (20 μL of bacterial solution in […] of broth). 5 μL of the resultant inoculum solution contained ˜4×10^4 CFU/mL. Confirmation of the inoculum was performed by preparing a serial dilution to give 100 μL of a 5000-fold dilution, all of which was then plated onto an appropriate plate. After incubation overnight at 37° C., the plate had 75-150 colonies.
(§5) In each well of a 96-well microtiter plate was combined 5 μL of bacterial inoculum, 90 μL of antibiotic dilutions, and 5 μL of test compound (or media for determination of the MIC of the antibiotic in the absence of test compound). Each plate included 2 wells with no bacterial inoculum (negative control) and 2 wells with no test compound and no antibiotic (positive control). The plate was covered and incubated with gentle shaking for 16-20 hours at 37° C. in air (CO2 for H. influenzae). Absorbance was read at 540 nm (Multiskan Titertek mcc/340). Bacterial growth was scored as follows: […]
(§6) The impact of the novel β-lactamase inhibitors is expressed as the ratio of the MIC determined in the absence of β-lactamase inhibitor to the MIC determined in the presence of the specified concentration of the β-lactamase inhibitor test compound. […]

By UniProt entry, the sequences of proteins in these tests, tags left out. Residues count along the entry.
UniProt P05364, 21-381 limits assumed: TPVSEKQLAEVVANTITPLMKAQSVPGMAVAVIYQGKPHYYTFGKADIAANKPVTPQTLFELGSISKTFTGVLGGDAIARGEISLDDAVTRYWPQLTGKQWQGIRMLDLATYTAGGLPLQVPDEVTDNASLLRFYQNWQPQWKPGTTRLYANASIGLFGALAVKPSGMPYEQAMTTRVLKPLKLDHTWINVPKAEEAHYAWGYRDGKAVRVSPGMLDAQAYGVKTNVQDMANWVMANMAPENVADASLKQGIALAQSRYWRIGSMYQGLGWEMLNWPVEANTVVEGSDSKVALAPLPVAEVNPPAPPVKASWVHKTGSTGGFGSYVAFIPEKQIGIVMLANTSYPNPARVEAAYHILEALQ
UniProt P52700, 34-290 limits assumed: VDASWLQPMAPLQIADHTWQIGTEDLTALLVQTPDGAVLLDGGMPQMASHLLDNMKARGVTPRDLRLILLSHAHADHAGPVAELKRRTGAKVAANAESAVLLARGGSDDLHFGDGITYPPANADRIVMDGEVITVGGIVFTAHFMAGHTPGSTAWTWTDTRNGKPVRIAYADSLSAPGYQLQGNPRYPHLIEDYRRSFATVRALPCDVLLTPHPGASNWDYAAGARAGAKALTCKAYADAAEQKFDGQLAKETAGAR

[3] = system: Haemophilus influenzae [ATCC #43163]; experiment: as above; format: cell-based; conditions: inhibitor at 10 μg/mL (first or only figure of cell); tested form: drawn as the phosphonate monoanion; coun
Description: as §1, §2, §3, §4, §5, §6

[4] = system: Enterobacter cloacae [ATCC #23355]; conditions: for Synergy (at μg/mL) Class C E. Cl 10/1: tested form: drawn as the phosphonate monoanion, coun; for Synergy Class C E. Cl (ratio of antibiotic MIC without inhibitor to MIC with inhibitor): Table 2, inhibitor concentration 10 μg/mL, Enterobacter cloacae [ATCC #23355]; for Synergy Class C E. Cl: ratio antibiotic MIC without/with inhibitor, inhibitor 10 μg/mL
L-1 β-lactamase = L-1 β-lactamase (Stenotrophomonas maltophilia, UniProt P52700); experiment: Determination of IC50, nitrocefin hydrolysis by L-1 β-lactamase; conditions: read-out: IC50 (μM) “B”; Table 2; Class B β-lactamase [L-1]
[5] = system: TEM R+ β-lactamase (class A); experiment: Determination of IC50, nitrocefin hydrolysis by TEM R+ β-lactamase; format: biochemical; conditions: read-out: IC50 (μM) “A”, Table 2
Description: Enzyme activity against the commercially available substrate, nitrocefin, was measured in the presence of various inhibitor concentrations. The P99 β-lactamase enzyme (1 mg/mL) was dissolved in 20 mM MOPS buffer at pH 7.50, and diluted 200-fold in the same buffer containing 0.1% BSA. Nitrocefin was stored as a 100 μM stock solution in 20 mM MOPS at pH 7.5. Stock solutions of test compounds were prepared in 10 mM MOPS at pH 7.5 (approximately 1 mg/mL)
A typical assay contained 300 μL of 100 μM nitrocefin, x μL of inhibitor test compound, 110-x μL of MOPS, and 10 μL of P99 β-lactamase. The reaction at 25° C. was followed spectrophotometrically at 482 nm. IC50 values were determined from the dose-response plots of the initial rates vs. inhibitor concentration
TEM R+ and L-1 […]-lactamases were assayed as described above for P99 […]-lactamase.

[6] = system: Enterococcus faecalis [ATCC#49757]; experiment: Antibiotic MIC in presence and absence of β-lactamase inhibitor (synergy); format: cell-based; conditions: Table 4; inhibitor 10 μg/ml; tested form: drawn as the phosphonate mono-anion; cou
Description: as §1, §2, §3, §4, §5, §6

[7] = system: Enterobacter cloacae (derepressed); experiment: Synergy against highly resistant β-lactamase positive strains; format: cell-based; conditions: Table 4, inhibitor 10 μg/ml, tested form: drawn as the phosphonate mono-anion, cou
Description: as §3
A sterile loop was touched to 3 colonies and used to inoculate 1 mL of Mueller-Hinton Broth (MHB). The bacterial solution was diluted 18.8-fold (20 μL of bacterial solution in […] of broth). 5 μL of the resultant inoculum solution contained ˜4×10^4 CFU/mL. […]
In each well of a 96-well microtiter plate was combined 5 μL of bacterial inoculum, 90 μL of antibiotic dilutions, and 5 μL of test compound (or media for determination of the MIC of the antibiotic in the absence of test compound). […] Absorbance was read at 540 nm (Multiskan Titertek mcc/340). Bacterial growth was scored as follows: […]
as §6

[8] = read-out: IC50 (μM) “C”, Table 2, Class C β-lactamase [P99]
[9] = read-out: IC50 (μM) “C”, Class C β-lactamase [P99], Table 1
[10] = Table 4, inhibitor 10 μg/ml, tested form: drawn as the phosphonate mono-anion, cou

CO/N=C(/C(=O)NCP(=O)(O)O)c1cccs1
IC50 ([1]; read-out: IC50 (μM) "C", class C β-lactamase, K = thousand, tested form: drawn as the phosphonate monoanion, coun): 1600 µM | Synergy (at μg/mL) Class A St. A 10 ([2]; inhibitor at 10 μg/mL, tested form: drawn as the phosphonate monoanion, coun): 0 | Synergy (at μg/mL) Class A H. In. 10/1 [3]: 0 | Synergy (at μg/mL) Class C E. Cl 10/1 ([4]; inhibitor at 1 μg/mL (second figure of cell)): 0 | Synergy (at μg/mL) Class C E. Cl 10/1 ([4]; inhibitor at 10 μg/mL (first figure of cell)): 4

O=P(O)(O)C(CCc1cccnc1)NS(=O)(=O)c1cccs1 (stereo not drawn)
IC50 [1, 8]: 84 µM | IC50 (L-1 β-lactamase): > 200 µM | IC50 [5]: > 200 µM | Synergy Class C E. Cl (ratio of antibiotic MIC without inhibitor to MIC with inhibitor) [4]: 0

O=[N+]([O-])c1ccc(/C=C/C(NS(=O)(=O)c2cccs2)P(=O)(O)O)cc1 (stereo not drawn)
IC50 [1, 8]: 128 µM | IC50 (L-1 β-lactamase): > 200 µM | IC50 [5]: > 200 µM | Synergy Class C E. Cl (ratio of antibiotic MIC without inhibitor to MIC with inhibitor) [4]: 0

O=P(O)(O)CNS(=O)(=O)c1cc2ccccc2s1
IC50 [1, 9]: 446 µM | Synergy Class C E. Cl [4]: 2

COc1cc(C(OP(=O)(O)CNS(=O)(=O)c2cc3c(Cl)ccc(Cl)c3s2)C(F)(F)F)ccc1F (stereo not drawn)
IC50 ([1]; read-out: IC50 (μM) “C”, Table 4, some cells marked MD or (75 μM NC), tested form: drawn as the phosphonate mono-anion, cou): > 500 µM | Synergy at 10 μg/ml Stap. Aureus [2, 10]: 0 | Synergy at 10 μg/ml Ent. Faec. [6]: 0 | Synergy at 10 μg/ml P99 Ent. Bact. [7]: 0 | Synergy at 10 μg/ml Ent. Cl. [4, 10]: 4

O=P(O)(O)CNS(=O)(=O)c1cc2ccccc2o1
IC50 ([1]; read-out: IC50 (μM) “C”, Class C β-lactamase [P99], Table 1, tested form: Na salt): 83 µM | Synergy Class C E. Cl ([4]; tested form: Na salt): 8

O=P(O)(CNS(=O)(=O)c1cc2ccccc2s1)OCc1ccccc1
IC50 [1, 9]: 96 µM | Synergy Class C E. Cl [4]: 4
